Results of unrelated studies side by side (data: NIAID ChemDB).

All rows: growth or infection tests; organism: Plasmodium falciparum; endpoint: EC50

Neighbouring rows are from separate reports. ECn is the concentration giving n% inhibition of infection, replication or growth. Blank or dashed fields: not listed here.

smiles | cell line | method | strain or isolate | conditions | mutations | value
CCN(CC)CCN1C(=O)c2ccccc2NC1c1ccc(Cl)cc1 |  | luciferase | 3D7 |  |  | 3.92 µM
NC(=S)N/N=C/c1ccccc1 |  | LDH | Dd2 |  |  | >10 µg/mL
C=CCC[C@@H]1C[C@@H]2CCC[C@@H]3C[C@H](CCC=C)NC(=N1)N32 |  | LDH | D6 |  |  | 6.27 µM
CN(CCCNc1ccnc2cc(Cl)ccc12)Cc1cc(=O)c(O)cn1C1CC1 |  | radiometric | 3D7 |  |  | 0.3 µM
CCN(CC)CCN1C(=O)c2ccccc2NC1c1ccc(OC)c(COc2cc(C(C)C)c(Cl)cc2C)c1 |  | luciferase | 3D7 |  |  | 2.55 µM
NC(=S)N/N=C/c1ccc(Cl)cc1.[Cl][Ru+].c1ccccc1 |  | LDH | NF54 |  |  | 6.2 µM
NC1=Nc2ccc(Cl)cc2C1(O)c1ccccc1 |  |  | 3D7 |  |  | 0.216 µM
CCCC[C@@H]1C[C@@H]2CC[C@@H]3C[C@H](CCCC)NC(=N1)N32 |  | LDH | W2 |  |  | 7.22 µM
C[C@H]1Cc2c([nH]c3cc(Cl)c(F)cc23)[C@@]2(N1)C(=O)Nc1ccc(Cl)cc12 |  | SYBR Green / fluorescence | KAE678R-3 |  | KAE678-resistant (I203M/I263V) | 0.011 µM
NC1=Nc2ccc(Cl)cc2C1(O)c1cccc2ccccc12 |  |  | Dd2 |  |  | 0.037 µM
C#CCCC1CC2CCC3CC(C)NC(=N1)N23 |  | LDH | D6 |  |  | 20.6 µM
C/C(=N\NC(=S)NCCNc1ccnc2cc(Cl)ccc12)c1ccccn1 |  | SYBR Green / fluorescence | 3D7 |  |  | 0.25 µM
NC1=Nc2ccc([N+](=O)[O-])cc2C1(O)c1ccccc1 |  |  | 3D7 |  |  | >5 µM
CCN(CC)CCN1C(=O)c2ccccc2NC1c1ccc(OC)c(COc2ccc(NC(C)=O)cc2)c1 |  | luciferase | 3D7 |  |  | >10 µM
Cc1[nH]nc2c1C(c1cc(C#N)cc(C(F)(F)F)c1)(C(C)C)C(C#N)=C(N)O2 |  | radiometric | NF54 |  |  | 0.31 µM
CCN(CC)CCCC(C)n1c(N)c(-c2nc3ccccc3[nH]2)c2nc(C#N)c(C#N)nc21 | Erythrocytes | hypoxanthine uptake / radiometric | NF54 |  |  | 0.05 µM
Cc1[nH]nc2c1C(c1cc(C#N)cc(-c3ccc(C(=O)N(C)C)s3)c1)(C(C)C)C(C#N)=C(N)O2 |  | radiometric | NF54 |  |  | 0.059 µM
O=C(/C=C/C=C/c1ccc2c(c1)OCO2)c1ccc(Cl)c(Cl)c1 |  | SYBR Green / fluorescence | 3D7 |  |  | 50 µM
Cn1cc(O)c(=O)cc1CNCCNc1ccnc2cc(Cl)ccc12 |  | radiometric | K1 |  |  | 1.75 µM
CCN(CC)CCCC(C)Nc1ccnc2cc(Cl)ccc12 |  | broth dilution / absorbance | W2 |  |  | 0.525 µM
CCN(CC)CCCC(C)Nc1ccnc2cc(Cl)ccc12 | RBC | flow cytometry | W2 |  |  | 0.52 µM
CCC[C@H]1O[C@@H]2CC(=O)O[C@@H]2C2=C1C(=O)c1c(O)cccc1C2=O |  | SYBR Green | 7G8 |  |  | 0.8 µM
N#CC1=C(N)Oc2[nH]ncc2C1(c1cc(Cl)cc(Cl)c1)C1CCC1 |  | radiometric | NF54 |  |  | >2.77 µM
Cc1c(O)c2ccccc2c2c1sc(NC1CCCCC1)[n+]2CCCN1CCN(C)CC1 |  | hypoxanthine uptake | D10 |  |  | 0.16 µM
CCN(CC)CCN1C(=O)c2ccccc2NC1c1ccccc1F |  | luciferase | 3D7 |  |  | >20 µM
CC[C@H]1OC(=O)[C@H](C)[C@@H](OC2C[C@@](C)(OC)[C@@H](O)[C@H](C)O2)[C@H](C)[C@@H](OC2O[C@H](C)C[C@H](N(C)C)[C@H]2O)[C@](C)(OC2C[C@@H](O)[C@H](O)[C@H](C)O2)C[C@@H](C)C(=O)[C@H](C)[C@@H](O)[C@]1(C)O | RBC | fluorescence | W2 Mef | 120 h |  | 5.1 µM
Cc1[nH]nc2c1C(c1cc(C#N)cc(N3CCN(C(=O)OCc4ccccc4)CC3)c1)(C(C)C)C(C#N)=C(N)O2 |  | radiometric | NF54 |  |  | 0.25 µM
COc1ccc(/C=C/C(=O)c2ccc(Cl)cc2)c(OC)c1OC |  | SYBR Green / fluorescence | INDO |  |  | 16.3 µM
Cc1ccc(C(C)C)cc1.NC(=S)N/N=C/c1ccc2ccccc2c1.[Cl][Ru+] |  | LDH | NF54 |  |  | 3.2 µM
C[C@H]1CCc2c([nH]c3ccccc23)[C@@]2(N1)C(=O)Nc1ccc(Cl)cc12 |  | SYBR Green / fluorescence | Dd2 (EF1) |  | Multidrug-resistant | 0.0275 µM
Cc1c(O)c2ccccc2c2c1sc(NCCCN(C)C)[n+]2C |  | hypoxanthine uptake | Dd2 |  |  | 0.25 µM
CCCCOC(=O)CC[C@H](NC(=O)c1ccc(-c2cc(C#N)cc(C3(C(C)C)C(C#N)=C(N)Oc4n[nH]c(C)c43)c2)s1)C(=O)OCCCC |  | radiometric | K1 |  |  | 2.35 µM
COc1ccc(/C=C/C=C/C(=O)c2ccc(Cl)cc2)cc1OC |  | SYBR Green / fluorescence | 3D7 |  |  | 22.5 µM
CC[C@H]1OC(=O)[C@H](C)[C@@H](OC2C[C@@](C)(OC)[C@@H](O)[C@H](C)O2)[C@H](C)[C@@H](OC2O[C@H](C)C[C@H](N(C)C)[C@H]2O)[C@](C)(OC2C[C@H](N)[C@H](O)[C@H](C)O2)C[C@@H](C)C(=O)[C@H](C)[C@@H](O)[C@]1(C)O | RBC | fluorescence | W2 Mef | 48 h |  | 27.6 µM
Cc1[nH]nc2c1C(C)(c1cc(Cl)cc(Cl)c1)C(C#N)=C(N)O2 |  | radiometric | NF54 |  |  | >2.98 µM
CCN(CC)CCN1C(=O)c2ccccc2NC1c1ccc(Cl)cc1Cl |  | luciferase | 3D7 |  |  | >20 µM
Cn1cc(O)c(=O)cc1CNCCCCCCNc1ccnc2cc(Cl)ccc12 |  | radiometric | 3D7 |  |  | 0.19 µM
N#Cc1nc2c(-c3nc4ccccc4[nH]3)c(N)n(CCc3ccc(N)cc3)c2nc1C#N | Erythrocytes | hypoxanthine uptake / radiometric | NF54 |  |  | 0.53 µM
Cc1[nH]nc2c1C(c1cc(Cl)cc(Cl)c1)(C(C)C)C(C#N)=C(N)O2 |  | radiometric | NF54 |  |  | 2.02 µM
NC1=Nc2ccc(Cl)cc2[C@]1(O)c1ccccc1 |  |  | 3D7 |  |  | 0.313 µM
COc1ccc(C(=O)/C=C/c2cccc3ccccc23)cc1 |  | SYBR Green / fluorescence | INDO |  |  | 20 µM
NC1=Nc2ccc(Cl)cc2[C@@]1(O)c1ccccc1 |  |  | 3D7 |  |  | 0.665 µM
O=c1cc(CNCCCNc2ccnc3cc(Cl)ccc23)n(C2CC2)cc1O |  | radiometric | K1 |  |  | 0.72 µM
COc1cc(OC)c(OC)cc1/C=C/C=C/C(=O)c1ccc(Cl)cc1 |  | SYBR Green / fluorescence | Dd2 |  |  | 36 µM
NCCCCNc1ccnc2cc(Cl)ccc12 |  | LDH | D10 |  |  | 2.15 µM
CCCCNc1sc2c(C)c(O)c3ccc(C(C)=NN=C(N)N)cc3c2[n+]1C |  | hypoxanthine uptake | D10 |  |  | 0.6 µM
N#Cc1nc2c(-c3nc4ccccc4[nH]3)c(N)n(Cc3ccc(O)c(O)c3)c2nc1C#N | Erythrocytes | hypoxanthine uptake / radiometric | NF54 |  |  | 5.23 µM
CC(C)CCC[C@@H]1C[C@@H]2CCC[C@@H]3C[C@H](CCCC(C)C)NC(=N1)N32 |  | LDH | D6 |  |  | 1.52 µM
CCN(CC)CCN1C(=O)c2ccccc2NC1c1ccc(C)cc1 |  | luciferase | 3D7 |  |  | 1.62 µM
CC1CC2CCC3CC(CCc4ccc(F)cc4)N=C(N1)N32 |  | LDH | D6 |  |  | 15.76 µM
CN(C)CCCn1c(N)c(-c2nc3ccccc3[nH]2)c2nc(C#N)c(C#N)nc21 | Erythrocytes | hypoxanthine uptake / radiometric | NF54 |  |  | 0.1 µM
Cc1ccc(C(C)C)cc1.NC(=S)N/N=C/c1ccc(Cl)cc1.[Cl][Ru+] |  | LDH | Dd2 |  |  | 3.8 µM
CCN(CC)CCCC(C)Nc1ccnc2cc(Cl)ccc12 |  | microscopy | RKL9 |  | Chloroquine-resistant | 0.192 µM
COc1cc(OC)c(OC)cc1/C=C/C(=O)c1ccc(Cl)cc1 |  | SYBR Green / fluorescence | 3D7 |  |  | 4 µM
N#Cc1nc2c(-c3nc4ccccc4[nH]3)c(N)n(CCc3ccc(Cl)cc3)c2nc1C#N | Erythrocytes | hypoxanthine uptake / radiometric | NF54 |  |  | 0.22 µM
CC(C)=CCC[C@@H]1C[C@@H]2CCC[C@@H]3C[C@H](CCC=C(C)C)NC(=N1)N32 |  | LDH | W2 |  |  | 2.18 µM
CCc1[nH]nc2c1C(c1cc(Cl)cc(Cl)c1)(C1CCC1)C(C#N)=C(N)O2 |  | radiometric | NF54 |  |  | >2.57 µM
CC1CC2CCC3CC(CCc4ccccc4)N=C(N1)N32 |  | LDH | D6 |  |  | 7.62 µM
Cc1ccc(CCn2c(N)c(-c3nc4ccccc4[nH]3)c3nc(C#N)c(C#N)nc32)cc1 | Erythrocytes | hypoxanthine uptake / radiometric | NF54 |  |  | 0.26 µM
C=CCCC1CC2CCCC3CC(C)NC(=N1)N23 |  | LDH | W2 |  |  | 19.27 µM
CC(=O)O[C@H]1CC2C(C3CC[C@H](C(C)CCCN(CCCNc4ccnc5cc(Cl)ccc45)CCCC(C)[C@H]4CCC5C6C(C[C@H](OC(C)=O)[C@@]54C)[C@@]4(C)CC[C@@H](NC(=O)OC(C)(C)C)C[C@H]4C[C@H]6OC(C)=O)[C@]31C)[C@H](OC(C)=O)C[C@@H]1C[C@H](NC(=O)OC(C)(C)C)CC[C@]21C |  | SYBR Green | D6 |  |  | 0.369 µM

5 of the rows above, restated:

smiles | cell line | method | strain or isolate | conditions | mutations | value
NC1=Nc2ccc(Cl)cc2[C@@]1(O)c1ccccc1 |  |  | 3D7 |  |  | 0.665 µM
CCN(CC)CCCC(C)n1c(N)c(-c2nc3ccccc3[nH]2)c2nc(C#N)c(C#N)nc21 | Erythrocytes | hypoxanthine uptake / radiometric | NF54 |  |  | 0.05 µM
CC(C)CCC[C@@H]1C[C@@H]2CCC[C@@H]3C[C@H](CCCC(C)C)NC(=N1)N32 |  | LDH | D6 |  |  | 1.52 µM
C/C(=N\NC(=S)NCCNc1ccnc2cc(Cl)ccc12)c1ccccn1 |  | SYBR Green / fluorescence | 3D7 |  |  | 0.25 µM
C#CCCC1CC2CCC3CC(C)NC(=N1)N23 |  | LDH | D6 |  |  | 20.6 µM